What follows are compounds tested against HIV-1 PR (Human immunodeficiency virus type 1 group M subtype B, UniProt P04585) (assay: HIV-protease inhibitory activity assay (FRET peptide substrate)). Settings: Test Example 1.
Format: biochemical

COc1ccc(S(=O)(=O)N(CC(C)C)C[C@@H](O)[C@H](Cc2ccc(OCc3ccccc3-c3sc4c(c3C(=O)O)C(O)C(C)(C)CC4=O)cc2)NC(=O)O[C@H]2CO[C@@]3(C)OCC[C@@H]23)cc1 (some centres unmarked) and COc1ccc(S(=O)(=O)N(CC(C)C)C[C@@H](O)[C@H](Cc2ccc(OCc3ccccc3-c3sc4c(c3C(=O)O)CC(C)(C)CC4O)cc2)NC(=O)O[C@H]2CO[C@@]3(C)OCC[C@@H]23)cc1 (some centres unmarked) are within 1.5-fold of each other in IC50: 0.97 nM for the first, 1 nM for the second.

Going from COc1ccc(S(=O)(=O)N(CC(C)C)C[C@@H](O)[C@H](Cc2ccc(OCC3CCCC3c3sc4c(c3C(=O)O)CC(C)(C)CC4)cc2)NC(=O)O[C@H]2CO[C@@]3(C)OCC[C@@H]23)cc1 (single isomer, unassigned) [I-9-1] to COc1ccc(S(=O)(=O)N(CC(C)C)C[C@@H](O)[C@H](Cc2ccc(OCC3CCCCC3c3sc4c(c3C(=O)O)CC(C)(C)CC4)cc2)NC(=O)O[C@H]2CO[C@@]3(C)OCC[C@@H]23)cc1 (single isomer, unassigned) [I-10-1], the IC50 rises from 1.53 nM to 5.17 nM (3.4-fold). The first is the more potent here.

Going from COc1ccc(S(=O)(=O)N(CC(C)C)C[C@@H](O)[C@H](Cc2ccc(N(C)Cc3cc4c(cc3-c3sc5c(c3C(=O)O)CC(C)(C)CC5)OCC(=O)N4)cc2)NC(=O)O[C@H]2CO[C@@]3(C)OCC[C@@H]23)cc1 to COc1ccc(S(=O)(=O)N(CC(C)C)C[C@@H](O)[C@H](Cc2ccc(N(C)Cc3cccc4c(-c5sc6c(c5C(=O)O)CC(C)(C)CC6)cccc34)cc2)NC(=O)O[C@H]2CO[C@@]3(C)OCC[C@@H]23)cc1, the IC50 rises from 3.29 nM to 12.1 nM (3.7-fold). The first is the more potent here.

COc1ccc(S(=O)(=O)N(CC(C)C)C[C@@H](O)[C@H](Cc2ccc(OCc3cccc(C(=O)O)c3-c3ccc(F)cc3F)cc2)NC(=O)O[C@H]2CO[C@H]3OCC[C@H]32)cc1 and COc1ccc(S(=O)(=O)N(CC(C)C)C[C@@H](O)[C@H](Cc2ccc(OCc3ccccc3-c3c(O)c4ccccc4oc3=O)cc2)NC(=O)O[C@H]2CO[C@H]3OCC[C@H]32)cc1 are within 1.5-fold of each other in IC50: 0.74 nM for the first, 1.06 nM for the second.

Compared with CC(C)CN(C[C@@H](O)[C@H](Cc1ccccc1)NC(=O)O[C@H]1CO[C@@]2(C)OCC[C@@H]12)S(=O)(=O)c1ccc(NCc2cccc(-c3sc4c(c3C(=O)O)CC(C)(C)CC4)c2)cc1, CC(C)CN(C[C@@H](O)[C@H](Cc1ccccc1)NC(=O)O[C@H]1CO[C@@]2(C)OCC[C@@H]12)S(=O)(=O)c1ccc(NCc2ccc(-c3sc4c(c3C(=O)O)CC(C)(C)CC4)cc2)cc1 is 1.5-fold higher in IC50: 1.12 nM for the first, 1.69 nM for the second. The first is the more potent here.

CC1(C)CCc2sc(-c3cccc(CNC(=O)OC[C@]45OCC[C@H]4[C@@H](OC(=O)N[C@@H](Cc4ccccc4)[C@H](O)CN(CC(F)F)S(=O)(=O)c4ccc6ncsc6c4)CO5)c3)c(C(=O)O)c2C1 and CC1(C)CCc2sc(-c3ccc(OC[C@]45OCC[C@H]4[C@@H](OC(=O)N[C@@H](Cc4ccccc4)[C@H](O)CN(CC(F)F)S(=O)(=O)c4ccc6ncsc6c4)CO5)cc3)c(C(=O)O)c2C1 are within 1.5-fold of each other in IC50: 2.46 nM for the first, 2.85 nM for the second.

Going from COc1ccc(S(=O)(=O)N(CC(C)C)C[C@@H](O)[C@H](Cc2ccc(NCC3CCCCC3C(=O)Nc3sc4c(c3C(=O)O)CC(C)(C)CC4)cc2)NC(=O)O[C@H]2CO[C@@]3(C)OCC[C@@H]23)cc1 (single isomer, unassigned) [I-624] to COc1ccc(S(=O)(=O)N(CC(C)C)C[C@@H](O)[C@H](Cc2ccc(NC[C@H]3CCCC[C@H]3NC(=O)c3sc4c(c3C(=O)O)CC(C)(C)CC4)cc2)NC(=O)O[C@H]2CO[C@@]3(C)OCC[C@@H]23)cc1, the IC50 falls from 3.77 nM to 1.9 nM (2-fold).

Going from CC(C)CN(C[C@@H](O)[C@H](Cc1ccc(OCc2ccccc2-c2sc3c(c2C(=O)O)CC(C)(C)CC3)cc1)NC(=O)O[C@H]1CO[C@@]2(C)OCC[C@@H]12)S(=O)(=O)c1ccc2nc(N(C)C3CCCCC3)sc2c1 to CCNc1nc2ccc(S(=O)(=O)N(CC(C)C)C[C@@H](O)[C@H](Cc3ccc(OCc4ccccc4-c4sc5c(c4C(=O)O)CC(C)(C)CC5)cc3)NC(=O)O[C@H]3CO[C@@]4(C)OCC[C@@H]34)cc2s1, the IC50 rises from 0.73 nM to 51 nM (70-fold). The first is the more potent here.

First: COc1ccc(S(=O)(=O)N(CC(C)C)C[C@@H](O)[C@H](Cc2ccc(OCc3ccccc3C3=C(C(=O)O)CCC3Cc3ccccc3)cc2)NC(=O)O[C@H]2CO[C@@]3(C)OCC[C@@H]23)cc1 (some centres unmarked)
Second: COc1ccc(S(=O)(=O)N(CC(C)C)C[C@@H](O)[C@H](Cc2ccc(OCc3ccccc3-c3cc(C(=O)O)cs3)cc2)NC(=O)O[C@H]2CO[C@@]3(C)OCC[C@@H]23)cc1
The IC50 of the first is 3-fold higher: 2.29 nM for the first, 0.76 nM for the second.

Compared with COc1ccc(S(=O)(=O)N(CC(C)C)C[C@@H](O)[C@H](Cc2ccc(OCc3ccccc3-c3sc4c(c3C(=O)O)C(C)(C)CC4)cc2)NC(=O)O[C@H]2CO[C@@]3(C)OCC[C@@H]23)cc1, COc1ccc(S(=O)(=O)N(CC(C)C)C[C@@H](O)[C@H](Cc2ccc(OCc3ccccc3-c3sc4c(c3C(=O)O)CCCCC4)cc2)NC(=O)O[C@H]2CO[C@@]3(C)OCC[C@@H]23)cc1 is 1.6-fold lower in IC50: 1.88 nM for the first, 1.16 nM for the second.

COc1ccc(S(=O)(=O)N(CC(C)C)C[C@@H](O)[C@H](Cc2ccc(NCc3ccc(N4CCCCC4=O)cc3-c3sc4c(c3C(=O)O)CC(C)(C)CC4)cc2)NC(=O)O[C@H]2CO[C@@]3(C)OCC[C@@H]23)cc1 and COc1ccc(S(=O)(=O)N(CC(C)C)C[C@@H](O)[C@H](Cc2ccc(NCc3cc(-c4ccsc4)ccc3-c3sc4c(c3C(=O)O)CC(C)(C)CC4)cc2)NC(=O)O[C@H]2CO[C@@]3(C)OCC[C@@H]23)cc1 are within 1.5-fold of each other in IC50: 2.07 nM for the first, 2.17 nM for the second.

Compared with COc1ccc(S(=O)(=O)N(CC(C)C)C[C@@H](O)[C@H](Cc2ccccc2)NC(=O)O[C@H]2CO[C@@]3(CNC(=O)c4cc(Cl)cc(Cl)c4O)OCC[C@@H]23)cc1, COc1ccc(S(=O)(=O)N(CC(C)C)C[C@@H](O)[C@H](Cc2ccccc2)NC(=O)O[C@H]2CO[C@@]3(CNCc4ccc(-c5sc6c(c5C(=O)O)CC(C)(C)CC6)cc4)OCC[C@@H]23)cc1 is 3.4-fold lower in IC50: 6.62 nM for the first, 1.97 nM for the second. The second is the more potent here.

CC(C)CN(C[C@@H](O)[C@H](Cc1ccccc1)NC(=O)O[C@H]1CO[C@@]2(C)OCC[C@@H]12)S(=O)(=O)c1ccc2nc(NCCOc3ccc(-c4sc5c(c4C(=O)O)CC(C)(C)CC5)cc3)sc2c1 and CC(C)CN(C[C@@H](O)[C@H](Cc1ccccc1)NC(=O)O[C@H]1CO[C@@]2(C)OCC[C@@H]12)S(=O)(=O)c1ccc2nc(NCCc3ccc(-c4sc5c(c4C(=O)O)CC(C)(C)CC5)cc3)sc2c1 are within 1.5-fold of each other in IC50: 1.02 nM for the first, 0.84 nM for the second.

Going from COc1ccc(S(=O)(=O)N(CC(C)C)C[C@@H](O)[C@H](Cc2ccc(N(C)Cc3ccc(C(F)(F)F)cc3C(=O)Nc3sc4c(c3C(=O)O)CC(C)(C)CC4)cc2)NC(=O)O[C@H]2CO[C@@]3(C)OCC[C@@H]23)cc1 to COc1ccc(S(=O)(=O)N(CC(C)C)C[C@@H](O)[C@H](Cc2ccc(OCc3ccc(-c4sc5c(c4C(=O)O)CC(C)(C)CC5)cc3)cc2)NC(=O)O[C@H]2CO[C@@]3(C)OCC[C@@H]23)cc1, the IC50 falls from 6.24 nM to 1 nM (6.2-fold).

First: COc1ccc(S(=O)(=O)N(CC(C)C)C[C@@H](O)[C@H](Cc2ccc(-c3ccc(Cn4nc(C(=O)O)c5c4CCC(C)(C)C5)cc3)cc2)NC(=O)O[C@H]2CO[C@@]3(C)OCC[C@@H]23)cc1
Second: COc1ccc(S(=O)(=O)N(CC(C)C)C[C@@H](O)[C@H](Cc2ccc(NC3CN(c4ccc(-c5sc6c(c5C(=O)O)CC(C)(C)CC6)cc4)C3)cc2)NC(=O)O[C@H]2CO[C@@]3(C)OCC[C@@H]23)cc1
The IC50 of the first is 2.8-fold lower: 1.95 nM for the first, 5.49 nM for the second. The first is the more potent here.

Compared with COc1ccc(S(=O)(=O)N(CC(C)C)C[C@@H](O)[C@H](Cc2ccc(N[C@H]3CCc4c(-c5sc6c(c5C(=O)O)CC(C)(C)CC6)cccc43)cc2)NC(=O)O[C@H]2CO[C@@]3(C)OCC[C@@H]23)cc1, COc1ccc(S(=O)(=O)N(CC(C)C)C[C@@H](O)[C@H](Cc2ccc(OCCOc3ccc(-c4sc5c(c4C(=O)O)CC(C)(C)CC5)c(C)c3)cc2)NC(=O)O[C@H]2CO[C@@]3(C)OCC[C@@H]23)cc1 is 1.8-fold lower in IC50: 3.8 nM for the first, 2.14 nM for the second.

Compared with COc1ccc(S(=O)(=O)N(CC(C)C)C[C@@H](O)[C@H](Cc2ccc(OCc3ccccc3-c3sc4c(c3C(=O)O)CC3(CC4)OCCO3)cc2)NC(=O)O[C@H]2CO[C@@]3(C)OCC[C@@H]23)cc1, COc1ccc(S(=O)(=O)N(CC(C)C)C[C@@H](O)[C@H](Cc2ccc(OC[C@H]3COCC[C@H]3c3sc4c(c3C(=O)O)CC(C)(C)CC4)cc2)NC(=O)O[C@H]2CO[C@@]3(C)OCC[C@@H]23)cc1 is 2.1-fold higher in IC50: 0.87 nM for the first, 1.86 nM for the second. The first is the more potent here.

Going from COc1ccc(S(=O)(=O)N(CC(C)C)C[C@@H](O)[C@H](Cc2ccc(NC[C@H]3COCC[C@H]3c3sc4c(c3C(=O)O)CC(C)(C)CC4)cc2)NC(=O)O[C@H]2CO[C@@]3(C)OCC[C@@H]23)cc1 to COc1ccc(S(=O)(=O)N(CC(C)C)C[C@@H](O)[C@H](Cc2ccc(NC[C@H]3CCCC[C@@H]3c3sc4c(c3C(=O)O)CC(C)(C)CC4)cc2)NC(=O)O[C@H]2CO[C@@]3(C)OCC[C@@H]23)cc1, the IC50 rises from 1.67 nM to 2.92 nM (1.7-fold). The first is the more potent here.

Going from COC(=O)N[C@H](C(=O)NC(Cc1ccc(-c2sc3c(c2C(=O)OC(C)(C)C)CC(C)(C)CC3)cc1)[C@@H](O)C[C@@H](Cc1ccccc1F)C(=O)N[C@H]1c2cc(F)cc(Cl)c2OC[C@H]1O)C(C)(C)C (some centres unmarked) to CC(C)CN(C[C@@H](O)[C@H](Cc1ccccc1)NC(=O)O[C@H]1CO[C@@]2(C)OCC[C@@H]12)S(=O)(=O)c1ccc(NCc2ccc(-c3sc4c(c3C(=O)O)CC(C)(C)CC4)c(F)c2)cc1, the IC50 falls from 6.83 nM to 3.53 nM (1.9-fold).

Compared with CC(C)CN(C[C@@H](O)[C@H](Cc1ccc(OCc2ccccc2-c2ccccc2C(N)=O)cc1)NC(=O)O[C@H]1CO[C@@]2(C)OCC[C@@H]12)S(=O)(=O)c1ccc2ncsc2c1, COc1ccc(S(=O)(=O)N(CC(C)C)C[C@@H](O)[C@H](Cc2ccc(OCc3ccc(-c4ccc(F)cc4F)cc3-c3nnn(C(C)(C)C)n3)cc2)NC(=O)O[C@H]2CO[C@@]3(C)OCC[C@@H]23)cc1 is 4-fold higher in IC50: 0.84 nM for the first, 3.38 nM for the second. The first is the more potent here.

COc1ccc(S(=O)(=O)N(CC(C)C)C[C@@H](O)[C@H](Cc2ccc(CN(C)[C@H]3CCCC[C@H]3c3sc4c(c3C(=O)O)CC(C)(C)CC4)cc2)NC(=O)O[C@H]2CO[C@@]3(C)OCC[C@@H]23)cc1 and COc1ccc(S(=O)(=O)N(CC(C)C)C[C@@H](O)[C@H](Cc2ccc(OCC3CCCC3c3sc4c(c3C(=O)O)CC(C)(C)CC4)cc2)NC(=O)O[C@H]2CO[C@@]3(C)OCC[C@@H]23)cc1 (single isomer, unassigned) [I-9-2] are within 1.5-fold of each other in IC50: 1.98 nM for the first, 1.56 nM for the second.

First: COc1ccc(S(=O)(=O)N(CC(C)C)C[C@@H](O)[C@H](Cc2ccc(OCCn3ccn4cc(C(=O)NCc5ccc(F)cc5F)c(=O)c(O)c4c3=O)cc2)NC(=O)O[C@H]2CO[C@@]3(C)OCC[C@@H]23)cc1
Second: COc1ccc(S(=O)(=O)N(CC(C)C)C[C@@H](O)[C@H](Cc2ccc(NC[C@H]3CCCCN3C(=O)Nc3sc4c(c3C(=O)O)CC(C)(C)CC4)cc2)NC(=O)O[C@H]2CO[C@@]3(C)OCC[C@@H]23)cc1
The IC50 of the first is 5.5-fold higher: 11.6 nM for the first, 2.11 nM for the second.
